The values that follow come from PMC5884726 (Structure (London, England : 1993), 2018).

Assay in all cases: native MS
The target in one data set is UreC (Klebsiella aerogenes).
The data set “native MS” concerns the molecule itself.
Data set [1] concerns the target (UreABC)3 urease apoprotein (Klebsiella aerogenes).

B1: UreB (natural protein, Klebsiella aerogenes, UniProt P18315 1-106, looked up)
chain: MIPGEYHVKPGQIALNTGRATCRVVVENHGDRPIQVGSHYHFAEVNPALKFDRQQAAGYRLNIPAGTAVRFEPGQKREVELVAFAGHRAVFGFRGEVMGPLEVNDE
On to B1, for which the binding result in the data set with UreC is listed as “binds”.

B2: UreA (natural protein, Klebsiella aerogenes, UniProt P18316 1-100, looked up)
chain: MELTPREKDKLLLFTAALVAERRLARGLKLNYPESVALISAFIMEGARDGKSVASLMEEGRHVLTREQVMEGVPEMIPDIQVEATFPDGSKLVTVHNPII
With B2, in the data set with UreC, the binding result was “binds”.

B3: MBP-UreDFG (maltose binding protein-UreD fusion with UreF and UreG) (complex)
chain 1: MLPPLKKGWQATLDLRFHQAGGKTVLASAQHVGPLTVQRPFYPEEETCHLYLLHPPGGIVGGDELTISAHLAPGCHTLITMPGASKFYRSSGAQALVRQQLTLAPQATLEWLPQDAIFFPGANARLFTTFHLCASSRLLAWDLLCLGRPVIGETFSHGTLSNRLEVWVDNEPLLVERLHLQEGELSSIAERPWVGTLLCYPATDALLDGVRDALAPLGLYAGASLTDRLLTVRFLSDDNLICQRVMRDVWQFLRPHLTGKSPVLPRIWLT
chain 2: MSTAEQRLRLMQLASSNLPVGGYSWSQGLEWAVEAGWVLDVAAFERWQRRQMTEGFFTVDLPLFARLYRACEQGDIAAAQRWTAYLLACRETRELREEERNRGAAFARLLSDWQPDCPPPWRSLCQQSQLAGMAWLGVRWRIALPEMALSLGYSWIESAVMAGVKLVPFGQQAAQQLILRLCDHYAAEMPRALAAPDGDIGSATPLAAIASARHETQYSRLFRS
chain 3: not shown
B3: the “stoichiometry N” value was 2 in “native MS” and 3 MBP-UreDFG per (UreABC)3 in data set [1].
